Measured values from several laboratories, pooled; numbers as filed in NIAID ChemDB.

All rows: growth or infection tests; species: HIV-1

Rows are shuffled and stem from different studies. ECn: concentration that inhibits the pathogen or its effect by n%. An empty or dashed field is not shown.

compound,strain or isolate,measure,method,mutations,cells,conditions,value
Cc1cn([C@H]2C[C@H](N=[N+]=[N-])[C@@H](CO)O2)c(=O)[nH]c1=O,Clinical isolate G910-6 post-AZT,EC50,plaque count,RT mutant at codon 215,CEM + CEM-SS,,0.33 µM
CC(C)(c1ncc(-c2ccc(F)cc2)o1)N1CCN(C[C@@H](O)C[C@@H](Cc2nnco2)C(=O)N[C@H]2c3ccccc3OC[C@H]2O)[C@H](C(=O)NCC(F)(F)F)C1,NL4-3 WT,EC95,p24,,MT-4,,0.125 µM
Cc1ccnc2c1NC(=O)c1cccnc1N2C1CC1,RTMC,EC50,plaque count,RT-D67N K70R T215Y K219Q,HT4 + HT4 LacZ-1,,0.05 µM
CCCc1nnc(C[C@H](C[C@H](O)CN2CCN(C(C)(C)c3ncc(-c4ccc(F)cc4)o3)C[C@H]2C(=O)NCC(F)(F)F)C(=O)N[C@H]2c3ccccc3OC[C@H]2O)o1,NL4-3 WT,EC95,p24,,MT-4,,0.016 µM
CC(C)Nc1cccnc1N1CCN(C(=O)c2cc3cc(NS(C)(=O)=O)ccc3[nH]2)CC1,HXB2,EC50,antigen,,MT-4,,~0.02 µM
O=C1CN=C(c2ccc[nH]2)c2cc(Cl)ccc2N1,IIIB/LAI,EC50,cytopathic effect / MTT,,MT-4,,>1 µM
Nc1ccn([C@H]2CC[C@@H](CO)O2)c(=O)n1,IIIB,EC50,cytopathic effect / MTT,,MT-2,,~0.2 µM
Nc1ncnc2c1ncn2[C@H]1C=C[C@@H](OCP(=O)(O)O)O1,IIIB,EC50,ATP,M41L D67N K70R L210W T215F K219Q,MT-2,,2.1 µM
Nc1nc(NC2CC2)c2ncn([C@H]3C=C[C@@H](CO)C3)c2n1,,EC50,p24,RT-delta67 K103N,MT-2,,0.268 µM
Cc1ccnc2c1NC(=O)c1cccnc1N2C1CC1,IIIB,EC50,cytopathic effect / MTT,,MT-4,,0.17 µM
CC(C)CN(C[C@@H](O)[C@H](Cc1ccccc1)NC(=O)O[C@H]1CO[C@H]2OCC(F)(F)[C@H]21)S(=O)(=O)c1ccc(N)cc1,ERS104pre,EC50,,L63P,PBMC,,0.0027 µM
C#Cc1ccc(Nc2nccc(Oc3c(C)cc(-c4cn(CC(=O)Nc5ccc(F)cc5)nn4)cc3C)n2)cc1,IIIB,EC50,MTT,E138K,MT-4,,>1.41 µM
Cc1cn([C@H]2C[C@H](N=[N+]=[N-])[C@@H](CO)O2)c(=O)[nH]c1=O,Site-directed mutant,EC50,cytopathic effect / XTT,RT-K65R K103N,MT-2,,0.7 µM
C[C@H](Cn1cnc2c(N)ncnc21)OCP(=O)(O)O,IIIB,EC50,p24,,PBMC,,0.18 µM
CC(C)(C)NC(=O)[C@@H]1C[C@@H]2CCCC[C@@H]2CN1C[C@@H](O)[C@H](Cc1ccccc1)NC(=O)[C@H](CC(N)=O)NC(=O)c1ccc2ccccc2n1,BMS-186318-resistant (PR A71T V82A),EC50,,PR-A71T V82A,,,0.013 µM
Cn1c2ccccc2c2c1cc(C#N)c(=O)n2-c1ccc([N+](=O)[O-])cc1,NRTI resistant,EC50,luciferase,RT-K65R,HeLa,,0.0054 µM
CC[C@@H](c1ccc(C(F)(F)F)cc1)N1CCN(C2(C)CCN(C(=O)c3c(C)ncnc3C)CC2)C[C@@H]1C,301657 Clinical isolates,EC50,,,PBMC,,<0.016 µM
CCCc1cc(=O)oc2c3c(c4c(c12)OC(C)(C)C=C4)O[C@H](CC)[C@H](C)[C@H]3O,IIIB,EC50,cytopathic effect / MTT,,CEM + CEM-SS,,>11.6 µM
Cc1cn([C@H]2C[C@H](N=[N+]=[N-])[C@@H](CO)O2)c(=O)[nH]c1=O,HXB2-D WT,EC50,cytopathic effect / XTT,,MT-2,,0.14 µM
COc1c(O)c(Br)c2c(c1OC)-c1c(c(Br)c(O)c(OC)c1OC)C[C@H](C)[C@H](C)C2,IIIB,EC50,syncytia,,SupT1 + Sup-T1,,0.39 µM
C[C@H](Cn1cnc2c(N)ncnc21)OCP(=O)(O)O,HXB2-D WT,EC50,cytopathic effect / XTT,,MT-2,,3.6 µM
Nc1ncnc2c1ncn2CCOCP(=O)(O)O,NL4-3 Recombinant,EC50,cytopathic effect / XTT,,MT-2,,23 µM
CCCCCCCCCCCCSCC(COP(=O)([O-])OCC[N+](C)(C)C)OCCCCCCCCO,RF2803 WT,EC50,plaque count,,CEM + CEM-SS,,0.08 µM
COc1cccc2cc(C(=O)N[C@@H](CC(N)=O)C(=O)N[C@@H](Cc3ccccc3)[C@H](O)C(=O)N3C[C@@H](Cl)C[C@H]3C(=O)NC(C)(C)C)oc12,IIIB,EC90,p24,,CEM,,0.06 µM
C#Cc1ccc(Nc2nccc(Oc3c(C)cc(-c4cn(Cc5ccc(C(N)=O)cc5)nn4)cc3C)n2)cc1,IIIB,EC50,MTT,E138K,MT-4,,0.12 µM
Cc1ccnc2c1NC(=O)c1cccnc1N2C1CC1,IIIB BHAP(RT-L100I),EC50,syncytia,RT-L100I,CEM,,0.04 µg/mL
CCCCCCCCCCCCSCC(COP(=O)([O-])OCC[N+](C)(C)C)OCCCCCCCCC(=O)OCC(=O)OC[C@H]1O[C@@H](n2cc(C)c(=O)[nH]c2=O)C[C@@H]1N=[N+]=[N-],IIIB WT,EC50,plaque count,,CEM + CEM-SS,,0.008 µM
CCCc1cc(=O)oc2c3c(c4c(c12)OC(C)(C)C=C4)OC(C)(C)[C@H](C)[C@@H]3O,IIIB,EC50,cytopathic effect / MTT,,CEM + CEM-SS,,>21.3 µM
CCOCn1c(Sc2ccccc2)c(CC)c(=O)[nH]c1=S,IIIB E-EBU(RT-Y181C),EC50,syncytia,RT-Y181C,CEM,,≥20 µg/mL
Cc1cn([C@H]2C[C@H](N=[N+]=[N-])[C@@H](CO)O2)c(=O)[nH]c1=O,NRTI resistant,EC50,luciferase,RT-M41L D67N M184V L210W T215Y,HeLa,,0.22 µM
Nc1nc2c(ncn2[C@@H]2O[C@H](OCP(=O)(O)O)C=C2F)c(=O)[nH]1,IIIB,EC50,ATP,,MT-2,,17.4 µM
Cc1cn([C@H]2C[C@H](N=[N+]=[N-])[C@@H](CO)O2)c(=O)[nH]c1=O,IIIB,EC50,MTT,K103N,MT-4,,0.019 µM
N#Cc1cc2[nH]c3ccccc3c2n(-c2ccc([N+](=O)[O-])cc2)c1=O,NNRTI-resistant,EC50,luciferase,RT-K103N,HeLa,,0.094 µM
CC(C)CN(C[C@@H](O)[C@H](Cc1ccccc1)NC(=O)O[C@H]1CCOC1)S(=O)(=O)c1ccc(N)cc1,IIIB,EC50,p24 / ELISA,K112M K113E V128I M200I H219P I401T R409K D437N L441P R41K,MT-2,,0.0473 µM
CC(C)(C)NC(=O)[C@@H]1C[C@@H]2CCCC[C@@H]2CN1C[C@@H](O)[C@H](Cc1ccccc1)NC(=O)[C@H](CC(N)=O)NC(=O)c1ccc2ccccc2n1,NL4-3,EC50,,,MT-4,,0.037 µM
CC(C)(c1ncc(-c2ccc(Cl)cc2)o1)N1CCN(C[C@@H](O)C[C@@H](Cc2nnco2)C(=O)N[C@H]2c3ccccc3OC[C@H]2O)[C@H](C(=O)NCC(F)(F)F)C1,K-60 Clinical isolate,EC50,p24,PR-L10I M46I I54V Q58E L63P I64V V77I V82F I84V L90M I93L,MT-4,,<0.063 µM
CC(C)CN(C[C@@H](O)[C@H](Cc1ccccc1)NC(=O)O[C@H]1CCOC1)S(=O)(=O)c1ccc(N)cc1,ERS104pre,EC50,,L63P,PBMC,,0.0295 µM
Cc1cc(C#Cc2ccccc2)cc(C)c1Oc1ccnc(NC2CCN(Cc3ccc(S(N)(=O)=O)cc3)CC2)n1,IIIB,EC50,MTT,E138K,MT-4,,0.037 µM
CC(C)(C)NC(=O)[C@@H]1CCCN1C(=O)[C@@H](O)[C@H](Cc1ccccc1)NC(=O)[C@H](CC(N)=O)NC(=O)c1cnc2ccccc2n1,IIIB,EC50,p24,,CEM,,<0.5 µM
Cc1cc(C#Cc2cccc(N)c2)cc(C)c1Oc1ccnc(Nc2ccc(C#N)cc2)n1,IIIB,EC50,MTT,,MT-4,,0.013 µM
S=C(NCCc1cccs1)Nc1ccc(Br)cn1,G190-6 Clinical isolate NRTI-resistant,EC50,plaque count,RT-M41L D67N K70R T215Y K219Q,HT4 + HeLa,,0.01 µM
CCOCn1c(Cc2cc(C)cc(C)c2)c(CC)c(=O)[nH]c1=O,IIIB NEV(RT-V106A),EC50,syncytia,RT-V106A,CEM,,0.03 µg/mL
Cc1ccc(S(=O)(=O)N(CC(C)C)C[C@@H](O)[C@H](Cc2ccccc2)NC(=O)O[C@H]2CO[C@H]3OCC[C@H]32)cc1,IIIB,EC50,ATP,8374-P62 GS-8374-resistant,MT-2,,0.0138 µM
Nc1nc2c(ncn2[C@H]2CO[C@@H](CO)O2)c(=O)[nH]1,Site-directed mutant,EC50,cytopathic effect / XTT,RT-K65R,MT-2,,12.3 µM
CC(C)(C)NC(=O)[C@@H]1C[C@H](Cl)CN1C(=O)[C@@H](O)[C@H](Cc1ccccc1)NC(=O)[C@H](CC(N)=O)NC(=O)c1cnc2ccccc2n1,IIIB,EC90,p24,,CEM,,0.12 µM
Cc1nnc(C[C@H](C[C@H](O)CN2CCN(C(C)(C)c3ncc(-c4ccc(Cl)cc4)o3)C[C@H]2C(=O)NCC(F)(F)F)C(=O)N[C@H]2c3ccccc3OC[C@H]2O)o1,NL4-3 WT,EC95,p24,,MT-4,,0.25 µM
C#Cc1ccc(Nc2nccc(Oc3c(C)cc(-c4cn(CCCC(=O)OC)nn4)cc3C)n2)cc1,IIIB,EC50,MTT,,MT-4,,0.18 µM
Nc1nc(NC2CC2)c2ncn([C@H]3C=C[C@@H](CO)C3)c2n1,Site-directed mutant,EC50,cytopathic effect / XTT,RT-K65R,MT-2,,9.25 µM
C#Cc1ccc(Nc2nccc(Oc3c(C)cc(-c4cn(CC(=O)OC)nn4)cc3C)n2)cc1,RES056,EC50,MTT,,MT-4,,>10.35 µM
Cc1ncnc(C)c1C(=O)N1CCC(C)(N2CCN([C@@H](Cc3ccccc3)c3ccc(C(F)(F)F)cc3)[C@@H](C)C2)CC1,JV1083 Clinical isolates,EC50,,,PBMC,,<0.00027 µM
CCOCn1c(Cc2ccccc2)c(CC)c(=O)[nH]c1=O,IIIB,EC50,syncytia,,CEM,,0.004 µg/mL
CCN(c1nc(F)ccc1NC(C)(C)C)C1CCN(C(=O)c2cc3cc(NC(=O)N4CCN(C)CC4)ccc3[nH]2)CC1,IIIB,EC50,ATP,ATV-P47 atazanavir-resistant mutant,MT-2,,0.0047 µM
Cc1cc(C#Cc2ccccc2)cc(C)c1Oc1ccnc(Nc2ccc(C#N)cc2)n1,IIIB,EC50,MTT,Y181C,MT-4,,0.574 µM
CC(C)(C)NC(=O)[C@@H]1C[C@H](Cl)CN1C(=O)[C@@H](O)[C@H](Cc1ccccc1)NC(=O)[C@H](CC(N)=O)NC(=O)OCc1ccccc1,IIIB,EC50,p24,,CEM,,<0.5 µM
CC(C)(c1ncc(-c2ccc(Cl)cc2)o1)N1CCN(C[C@@H](O)C[C@@H](Cc2nnc(-c3ccccc3)o2)C(=O)N[C@H]2c3ccccc3OC[C@H]2O)[C@H](C(=O)NCC(F)(F)F)C1,Q-60 Clinical isolate,EC50,p24,PR-L10I N37S R41K M46I I54V I62V L63P A71V V77I V82A L90M I93L,MT-4,,<0.016 µM
COc1c(O)c(Cl)c2c(c1OC)-c1c(c(Cl)c(O)c(OC)c1OC)C[C@H](C)[C@H](C)C2,N119 nevirapine-resistant (RT Y181C),EC50,cytopathic effect / MTT,RT-Y181C,MT-2,,>20 µM
C#Cc1ccc(Nc2nccc(Oc3c(C)cc(-c4cn(Cc5ccc(C#N)cc5)nn4)cc3C)n2)cc1,IIIB,EC50,MTT,,MT-4,,0.076 µM
CCCc1nnc(C[C@H](C[C@H](O)CN2CCN(C(C)(C)c3ncc(-c4ccc(Cl)cc4)o3)C[C@H]2C(=O)NCC(F)(F)F)C(=O)N[C@H]2c3ccccc3OC[C@H]2O)o1,K-60 Clinical isolate,EC50,p24,PR-L10I M46I I54V Q58E L63P I64V V77I V82F I84V L90M I93L,MT-4,,<0.016 µM
CCO/N=C(\c1ccc(Br)cc1)C1CCN(C2(C)CCN(C(=O)c3c(C)cc[n+]([O-])c3C)CC2)CC1,JRCSF R5 CLADE B,EC50,p24,,PBMC,,0.0005 µM
C#Cc1ccc(Nc2nccc(Oc3c(C)cc(-c4cn(Cc5ccccc5)nn4)cc3C)n2)cc1,RES056,EC50,MTT,,MT-4,,>8.55 µM
C[C@H](Cn1cnc2c(N)ncnc21)OCP(=O)(O)O,,EC50,p24 / ELISA / antigen,,Macrophages,,0.41 µM
Cc1cn([C@H]2C=C[C@@H](CO)O2)c(=O)[nH]c1=O,NL4-3 WT,EC50,p24,,MT-2,,0.053 µM
Cc1cn([C@@H]2O[C@H](CO[Si](C)(C)C(C)(C)C)C3(OS(=O)(=O)C=C3N)[C@H]2O[Si](C)(C)C(C)(C)C)c(=O)n(C)c1=O,IIIB BHAP(RT-L100I),EC50,syncytia,RT-L100I,CEM,,0.04 µg/mL
CCCc1cc(=O)oc2c(C(=O)C(C)C(C)(C)O)c(O)c3c(c12)OC(C)(C)C=C3,IIIB,EC50,cytopathic effect / MTT,,CEM + CEM-SS,,>27.1 µM
COc1cncc(-c2cnc(C(C)(C)N3CCN(C[C@@H](O)C[C@@H](Cc4nnc(-c5ccccc5)o4)C(=O)N[C@H]4c5ccccc5OC[C@H]4O)[C@H](C(=O)NCC(F)(F)F)C3)o2)c1,Q-60 Clinical isolate,EC95,p24,PR-L10I N37S R41K M46I I54V I62V L63P A71V V77I V82A L90M I93L,MT-4,,0.5 µM
C#C[C@]1(CO)O[C@@H](n2cnc3c(N)nc(F)nc32)C[C@@H]1O,Clinical isolate,EC50,fluorescence,V90I,MT4-GFP,,0.00093 µM
Cc1cc(C#Cc2ccccn2)cc(C)c1Oc1ccnc(Nc2ccc(C#N)cc2)n1,IIIB,EC50,MTT,L100I,MT-4,,≥1.53 µM
C#Cc1ccc(Nc2nccc(Oc3c(C)cc(-c4cn(Cc5cccc(C(=O)OC)c5)nn4)cc3C)n2)cc1,RES056,EC50,MTT,,MT-4,,>4.78 µM
Cc1cn([C@H]2C[C@H](N=[N+]=[N-])[C@@H](CO)O2)c(=O)[nH]c1=O,BR-92-025 (subtype C),EC50,p24 / ELISA / antigen,,PBMCs,4 d,0.26 µM